Results deposited as PubChem BioAssay AID504761 (Drosophila RNAi Screening Center, 2011).
In all, the deposit lists about 22,000 reagents; shown is an unselected part of those with a known target gene and a result. In the full data, 116 (0.52%) got an active call. 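Calls depend on retest data that are not deposited; infection was ranked per plate without normalising between plates; the unit of the infection score is not given.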 Raw values vary from plate to plate and are shown uncorrected. Names joined by + are all predicted targets of the reagent. Not given: the amount of reagent, the time to read-out.

Aim: 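Genome-wide fly cell screen for genes dengue virus requires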 (primary screen)
System: D.Mel-2 cells from Drosophila
Knock-down reagent: long dsRNA against Drosophila genes
Treatment: infection with dengue virus type 2; dose and infection time not stated
Measured: 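Cells stained for dengue envelope protein and imaged; percent of infected cells per well on duplicate plates, ranked by infection, with stained nuclei counted for cell number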
Reading the numbers: infection score: higher = more virus-infected cells; cell count: higher = more cells in the well
Active means: 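Low infection ranks in the two replicates (chance level up to 0.065) followed by a retest with a 1.5-fold or larger significant decrease, p below 0.05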
Meaning of the calls: active = confirmed: knock-down lowers infection; inactive = not picked or not confirmed

gene knocked down | dsRNA | infection score, replicate 1 | infection score, replicate 2 | cell count, replicate 1 | cell count, replicate 2 | call
CG13231 | DRSC06351 | 3.7 | 18.3 | 6811 | 6374 | inactive
CG13231 | DRSC26554 | 2.94 | 13.2 | 6507 | 5690 | inactive
Rift | DRSC14330 | 7.31 | 3.17 | 3748 | 1419 | inactive
CG31253 + CG31131 | DRSC13839 | 9 | 6.9 | 4831 | 6046 | inactive
CG32856 | DRSC13124 | 0.63 | 0.25 | 6312 | 6305 | inactive
CG32856 | DRSC29746 | 10.3 | – | 6373 | 323 | inactive
CG7824 | DRSC16321 | 4.83 | 3.72 | 6127 | 6585 | inactive
alpha-Est5 | DRSC12617 | 6.13 | 14.1 | 5728 | 6160 | inactive
Aps | DRSC10629 | 2.59 | 3.36 | 6184 | 5839 | inactive
CG1738 | DRSC19772 | 4.83 | 3.12 | 4923 | 5454 | inactive
CG1738 | DRSC29312 | – | – | 413 | 264 | inactive
CG3492 | DRSC04373 | 9.9 | 15.8 | 6543 | 6485 | inactive
CG17110 | DRSC15173 | 5.86 | 1.25 | 7016 | 6874 | inactive
140up | DRSC12634 | 10.4 | 6.16 | 6392 | 6586 | inactive
140up | DRSC28711 | 4.9 | 1.7 | 2388 | 471 | inactive
CG15145 | DRSC02446 | 4.29 | 1.54 | 6172 | 6547 | inactive
CG15145 | DRSC26674 | 1.87 | 3.22 | 5950 | 6310 | inactive
Hip14 | DRSC10570 | 4.18 | 6.7 | 6692 | 6361 | inactive
Teh3 | DRSC08537 | 3.26 | 3.98 | 6528 | 6181 | inactive
Teh3 | DRSC29472 | 25.6 | 16 | 3232 | 4697 | inactive
CG2767 | DRSC15451 | 17.2 | 14 | 4380 | 6241 | inactive
CG2767 | DRSC26830 | 15.8 | 4.4 | 6777 | 6226 | inactive
CG12691 | DRSC17880 | 1.42 | 7.12 | 989 | 7387 | inactive
Cpr56F | DRSC07326 | 1.39 | 0.54 | 5892 | 6672 | inactive
Cpr56F | DRSC24002 | 22.9 | 4.68 | 5036 | 6622 | inactive
Gss1 + Gss2 | DRSC20008 | 0.99 | 1.55 | 6771 | 6397 | inactive
Gss1 + Gss2 | DRSC21539 | 1.18 | 4.88 | 6122 | 6514 | inactive
CG18545 | DRSC15343 | 13.4 | 10.3 | 6224 | 4765 | inactive
Ssl2 | DRSC14395 | 8.73 | 1.08 | 5478 | 6587 | inactive
Ssl2 | DRSC22796 | 1.76 | 11 | 5641 | 3249 | inactive
CG33271 | DRSC10583 | 2.23 | 7.01 | 5392 | 6208 | inactive
CG6325 | DRSC16020 | 18.8 | 9.33 | 5297 | 5659 | inactive
CG12783 | DRSC14538 | 0.52 | 5.81 | 6529 | 7043 | inactive
CG18088 | DRSC02654 | 5.71 | 5.54 | 6374 | 6891 | inactive
CG42327 | DRSC14936 | 6.61 | 8.58 | 6308 | 6164 | inactive
CG42327 | DRSC14937 | 1.58 | 15.5 | 6439 | 6099 | inactive
CG42327 | DRSC23337 | 1.27 | 11.4 | 6923 | 6388 | inactive
CG42327 | DRSC28159 | 7.1 | 6.25 | 6580 | 6672 | inactive
CG42327 | DRSC28248 | 21.3 | 11.7 | 4997 | 6082 | inactive
Atac3 | DRSC08579 | 7.91 | 2.02 | 6159 | 6988 | inactive
CG12576 | DRSC20621 | 3.51 | 0.5 | 6007 | 5593 | inactive
CG12576 | DRSC26254 | 10.6 | 6.11 | 5086 | 5795 | inactive
CG9192 | DRSC08639 | 3.92 | 2.2 | 6194 | 5827 | inactive
JMJD7 | DRSC09703 | 9.71 | 2.58 | 6847 | 6693 | inactive
MFS12 | DRSC07268 | 9.23 | 9.95 | 4541 | 5408 | inactive
CG13978 | DRSC14720 | 4.84 | 1.15 | 6321 | 7207 | inactive
Cep97 | DRSC00637 | 3.5 | 4.05 | 6310 | 6372 | inactive
CG13313 | DRSC09984 | 2.36 | 2.25 | 6065 | 6494 | inactive
CG13313 | DRSC28463 | 16.1 | 1.18 | 4865 | 507 | inactive
ODA-Dnal1 | DRSC07270 | 8.12 | 6.48 | 6074 | 6929 | inactive
ODA-Dnal1 | DRSC28259 | 17.1 | 7.39 | 6093 | 6269 | inactive
BORCS5 | DRSC19427 | 0.95 | 6.13 | 6654 | 6660 | inactive
BORCS5 | DRSC26187 | 15.2 | 3.29 | 5065 | 6023 | inactive
CG7601 | DRSC14131 | 4.94 | 5.21 | 3038 | 6374 | inactive
Ccp84Ae | DRSC12590 | 3.14 | 6.12 | 6074 | 6716 | inactive
Ccp84Ae | DRSC26385 | 6.78 | 4.18 | 5680 | 5787 | inactive
egh | DRSC18771 | 11.5 | 5.04 | 5964 | 6601 | inactive
egh | DRSC29898 | 23.8 | 5.91 | 5535 | 5722 | inactive
